Test results reported in patent publication US7767704B2, “Antiviral 4-aminocarbonylamino-substituted imidazole compounds” (AiCuris GmbH & Co. KG, priority 2004, dated 2010).

tested on: HCMV; assay: Anti-HCMV (anti-human cytomegalovirus) cytopathogenicity test; format: cell-based; settings: selectivity index = CC50 (NHDF)/EC50 (HCMV)
Method: Anti-HCMV (Anti-human Cytomegalovirus) Cytopathogenicity Tests
The test compounds are employed as 50 millimolar (mM) solutions in dimethyl sulphoxide (DMSO). Ganciclovir, foscarnet and cidofovir are used as reference compounds. After addition of in each case 2 μl of the 50, 5, 0.5 and 0.05 mM DMSO stock solutions to 98 μl portions of cell culture medium in row 2 A-H for duplicate determinations, 1:2 dilutions are carried out with 50 μl portions of medium up to row 11 of the 96-well plate. The wells in rows 1 and 12 each contain 50 μl of medium. 150 μl of a suspension of 1×10^4 cells (human prepuce fibroblasts [NHDF]) are pipetted into each of the wells (row 1=cell control) and, in rows 2-12, a mixture of HCMV-infected and uninfected NHDF cells (M.O.I.=0.001-0.002), i.e. 1-2 infected cells per 1000 uninfected cells. Row 12 (without substance) serves as virus control. The final test concentrations are 250-0.0005 μM. The plates are incubated at 37° C./5% CO2 for 6 days, i.e. until all the cells are infected in the virus controls (100% cytopathogenic effect [CPE]). The wells are then fixed and stained by adding a mixture of formalin and Giemsa's dye (30 minutes), washed with double-distilled water and dried in a drying oven at 50° C. The plates are then assessed visually using an overhead microscope (plaque multiplier from Technomara).
The following data can be acquired from the test plates: • CC50 (NHDF)=substance concentration in μM at which no visible cytostatic effects on the cells are evident by comparison with the untreated cell control; • EC50 (HCMV)=substance concentration in […] which inhibits the CPE (cytopathic effect) by 50% compared with the untreated virus control; • SI (selectivity index)=CC50 (NHDF)/EC50 (HCMV).

Compound	SI HCMV
Cc1cc(Cl)ccc1NC(=O)Nc1cn(CC2CC2)c(C(=O)NCCCn2cccn2)n1 [Example 11]	25 000^
Cn1cc(NC(=O)Nc2ccc(OC(F)(F)F)cc2)nc1C(=O)NCCCC(F)(F)F [Example 152, 1-Methyl-N-(4,4,4-trifluorobutyl)-4-[({[4-(trifluoromethoxy)phenyl]amino}carbonyl)amino]-1H-imidazole-2-carboxamide]	16 316^
O=C(Nc1ccc(OC(F)(F)F)cc1)Nc1cn(Cc2ccc(C(F)(F)F)cc2)c(C(=O)NCCO)n1 [Example 124, N-(2-Hydroxyethyl)-4-[({[4-(trifluoromethoxy)phenyl]amino}carbonyl)amino]-1-[4-(trifluoromethyl)benzyl]-1H-imidazole-2-carboxamide]	6714
Cc1cc(Cl)ccc1NC(=O)Nc1cn(CC2CC2)c(C(=O)NCCCN2CCOCC2)n1 [Example 3, 4-({[(4-Chloro-2-methylphenyl)amino]carbonyl}amino)-1-(cyclopropylmethyl)-N-(3-morpholin-4-ylpropyl)-1H-imidazole-2-carboxamide]	8333
COc1ccc(CNC(=O)c2nc(NC(=O)Nc3ccc(OC(F)(F)F)cc3)cn2CC2CC2)cc1 [Example 32]	3130
COc1ccc(C(C)NC(=O)c2nc(NC(=O)Nc3ccc(C)c(F)c3)cn2C)cn1 (centres unmarked) [Example 2, 4-({[(3-Fluoro-4-methylphenyl)amino]carbonyl}amino)-N-[1-(6-methoxypyridin-3-yl)ethyl]-1-methyl-1H-imidazole-2-carboxamide]	188 000 ^
O=C(Nc1ccc(OC(F)(F)F)cc1)Nc1cn(Cc2ccc(C(F)(F)F)cc2)c(C(=O)NCCOC(=O)CN2CCOCC2)n1 [Example 139]	1679
COCCOCCCNC(=O)c1nc(NC(=O)Nc2ccc(Cl)cc2C)cn1CC=C(C)C [Example 25]	6250
